# Primary screen of a compound library

The values are deposited in ChEMBL (CHEMBL3988442, “University of Dundee, Small-Polar-MMV Screening Library” (2021)).

Each number is a percent effect as filed. The controls that fix the scale are not given in the record; negative values are as filed. This is part of a subset picked to be rich in strong results. Two or more numbers in one place are separate tests of the same structure; such repeats can differ widely. A dash means the value is not listed here; it may have been measured.

Mtb glucose medium: 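Whole-cell growth test on Mycobacterium tuberculosis, read after 3 days in glucose-containing 7H9 medium; the read-out is not stated. Compounds at 50 µM. Higher reads as more growth inhibition (inferred: compounds with an IC50 in retests scored well above the rest). Size under these conditions: about 69,000 compounds, about 760 of them at 50% or above in at least one test.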
Mtb cholesterol medium: 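Growth of Mycobacterium tuberculosis over 4 days (cholesterol / DPPC medium with tyloxapol); the read-out is not stated. Compounds at 50 µM. The record gives no direction; compounds that gave an IC50 in retests scored well above the rest, so higher reads as more growth inhibition. About 69,000 compounds were tested under these conditions; 0.54% (about 370) showed 50% or more at least once.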

- OC1(c2ccccc2F)CCN(Cc2ccccc2N2CCCC2)CC1 | Mtb glucose medium: 36.19%; Mtb cholesterol medium: 10.76%
- Cn1nnc(NCc2ccc(-c3ccc(Br)cc3)o2)n1 | Mtb glucose medium: 73.92% & 13.45%
- Cc1cccc(OCCNC(=O)C(C)S(=O)(=O)C2CCCC2)c1 (stereo not shown) | Mtb glucose medium: -37.57% & -1.505%
- CN1CCC(CNC(=O)c2cccc(NC(N)=O)c2)c2ccccc21 (stereo not shown) | Mtb glucose medium: 11.74% & 8.752%
- CC(=O)N1CCOC(Cc2cccc(C(F)(F)F)c2)C1 (stereo not shown) | Mtb glucose medium: 33.46% & 3.288%
- COc1ccc(CNCC2CC2)cc1F | Mtb glucose medium: 13.96%
- O=C(CCN1CCCC(CO)(CC2CC2)C1)NC1CCCCC1 (stereo not shown) | Mtb glucose medium: -7.645%
- N#Cc1cccc(N2CCC3(CC2)Nc2ccccc2NC3=O)n1 | Mtb cholesterol medium: -1.71%
- COc1ccnc(NC(Cc2ccccc2)C(N)=O)n1 (stereo not shown) | Mtb cholesterol medium: -4.487%
- CC(C)Nc1ncccc1C(=O)NCc1ncc[nH]1 | Mtb cholesterol medium: -1.253%
- CNC(=O)NC(C)c1nc(-c2ccccc2)c[nH]1 (stereo not shown) | Mtb glucose medium: -11.8%
- CCCn1ncc2c(C(=O)Nc3cnn(CC)c3C)cc(C3CC3)nc21 | Mtb glucose medium: 52.89%
- CC(C)CCOc1ccc(C(C)NC(=O)Cn2cccnc2=O)cc1 (stereo not shown) | Mtb cholesterol medium: 51.01% & -1.017%
- Cc1nc(N2Cc3cnn(Cc4ccc(F)cc4)c3C2)no1 | Mtb cholesterol medium: 7.412% & -23.55%
- O=C(NCCC(=O)N1CCCc2ccccc21)c1ccc(F)cc1F | Mtb glucose medium: -13.49%
- c1ccc(CCN2CCN(c3ccc4nncn4n3)CC2)cc1 | Mtb glucose medium: 50.05%
- CN(C)S(=O)(=O)N1CCC(Oc2ccccn2)CC1 | Mtb glucose medium: 13.64%; Mtb cholesterol medium: -1.896%
- O=C(NCC1CC1)N1CCN(Cc2ccc3c(c2)OCCO3)CC1 | Mtb glucose medium: 70.14%; Mtb cholesterol medium: 65.83%
- Cn1cc(CN(Cc2ccccn2)Cc2ccccc2Cl)cn1 | Mtb glucose medium: 15.85%
- Cc1nc(C)n(CC2CN(c3ncccc3C#N)CCO2)n1 (stereo not shown) | Mtb glucose medium: 4.21%
- CCN(C(=O)CN1CCCC1c1ccc(F)cc1)c1ccccc1C (stereo not shown) | Mtb glucose medium: 41.36%; Mtb cholesterol medium: 4.393%
- CN(Cc1cccc(F)c1)S(=O)(=O)N1CCOCC1 | Mtb glucose medium: -2.845% & -5.532%; Mtb cholesterol medium: -7.969%
- Cc1cc(C)n(C2CCCN(C(=O)Cc3csc(C)n3)C2)n1 (stereo not shown) | Mtb glucose medium: -7.748%
- Cc1ccc(OCC(=O)NCc2ccco2)nc1 | Mtb glucose medium: 7.529%; Mtb cholesterol medium: -12.69% & 6.189%
- COc1cc(C(=O)Nc2nc(C)no2)ccc1C | Mtb glucose medium: 73.9%
- Cc1ccc2nnc(C(=O)NCC3CCCC3)nc2c1 | Mtb glucose medium: 75.15% & 67.55%; Mtb cholesterol medium: 59.26%
- Cc1ccc(NC(=O)NCC2(N3CCOCC3)CCSC2)c(C)c1 (stereo not shown) | Mtb glucose medium: -7.728% & -10.93%
- Cc1ncsc1CCC(=O)N1CCCC1c1cccnc1 (stereo not shown) | Mtb cholesterol medium: 70.67%
- Cc1cccnc1CN(C)C(C(=O)O)c1ccc(C(C)(C)C#N)cc1 (stereo not shown) | Mtb glucose medium: 39.86%
- CSc1ncccc1C(=O)NCCC(O)c1cc(C)oc1C (stereo not shown) | Mtb glucose medium: 18.95% & -4.452%
- Cc1ccc(Cl)c(CN2CCC(c3nccn3C(C)C)CC2)c1F | Mtb glucose medium: 20.33%
- CCn1nc(C)cc1C(=O)NCc1nc(C)cc(C)n1 | Mtb glucose medium: 18.24%; Mtb cholesterol medium: 7.294%
- Cc1nc(C(Cc2ccsc2)NC(=O)CN2CCOCC2)sc1C (stereo not shown) | Mtb glucose medium: -1.274%
- CCOc1cccc(CSC(C)c2nc(C)no2)n1 (stereo not shown) | Mtb glucose medium: 18.78%
- O=C(c1csc(-c2nnc[nH]2)n1)N1CCCCC1Cn1cccn1 (stereo not shown) | Mtb cholesterol medium: 10.88%
- Fc1ccc(CCC2CCCN(Cc3c[nH]cn3)C2)c(F)c1 (stereo not shown) | Mtb glucose medium: 34.69%; Mtb cholesterol medium: 12.28%
- Cn1cc(CNC2CCCOc3c(Cl)cccc32)cn1 (stereo not shown) | Mtb glucose medium: 2.795% & -40.97%
- CN1CCN(Cc2noc(CCc3nc(-c4ccccc4)no3)n2)CC1 | Mtb glucose medium: -33.48%
- COc1ccc(CNC(Cc2ccsc2)c2ncccc2C)cc1OC (stereo not shown) | Mtb glucose medium: 21.16%
- COc1cc(C(=O)Nc2nc(C)no2)cc(Cl)c1OC | Mtb glucose medium: 58.42%

For reference, 3 entries once more:

| Compound | Mtb glucose medium | Mtb cholesterol medium |
|---|---|---|
| `O=C(CCN1CCCC(CO)(CC2CC2)C1)NC1CCCCC1` (stereo not shown) | -7.645% | - |
| `CCOc1cccc(CSC(C)c2nc(C)no2)n1` (stereo not shown) | 18.78% | - |
| `Cn1nnc(NCc2ccc(-c3ccc(Br)cc3)o2)n1` | 73.92% & 13.45% | - |